A mixed list of measured activities; the numbers were collected in NIAID ChemDB.

Common to all: growth or infection tests; species: HIV-1; cell line: MT-4; endpoint: inhibition

An empty or dashed field is not shown.

smiles,strain or isolate,mutations,read by,setting,tested at,value
O=C(NC1CC1)c1cn2c(c1O)C(=O)N(Cc1ccc(F)cc1)CC2,,,p24,,95 µM,≤20%
O=C(NCCc1ccccc1)Nc1nncs1,,,cytopathic effect / XTT,,10 µg/mL,100%
N#Cc1cc(Cl)cc(Oc2c(Cl)ccc3c2cnn3Cc2[nH]nc3nc(N)ccc23)c1,,,,50% human serum,0.043 µM,>95%
O=C1[C@@H](Cc2ccc(O)cc2)NC(=S)N1c1ccccc1,,,cytopathic effect / XTT,,1 µg/mL,4–44%
CC(C)c1cc(=O)oc2c(C3C=NNC(c4cccs4)=N3)c(O)c3c(c12)OC(C)(C)C=C3,899A,,RT activity / visual reading,,50 µM,43%
S=C(NCCc1ccc(Cl)cc1)Nc1nccs1,,,cytopathic effect / XTT,,10 µg/mL,79–93%
Cc1cc(C)c(S(=O)(=O)OCC2OC3OC4C(CO)OC(OC5C(CO)OC(OC6C(CO)OC(OC7C(CO)OC(OC8C(CO)OC(OC9C(C[n+]%10ccccc%10)OC(OC2C(O)C3O)C(O)C9O)C(O)C8O)C(O)C7O)C(O)C6O)C(O)C5O)C(O)C4O)c(C)c1,KK-1(AIDS),,cytopathic effect / trypan blue,,62.5 µg/mL,100%
CNC(=O)c1cn2c(c1O)C(=O)N(Cc1ccc(Cl)cc1)CC2,,,p24,,95 µM,≤20%
CC(C)c1cc(=O)oc2c(CN3CCCC3)c(O)c3c(c12)OC(C)(C)C=C3,899A,,RT activity / visual reading,,50 µM,14%
CCOC(=O)c1cn2c(c1O)C(=O)N(Cc1ccccc1)CC2,,,p24,,95 µM,≤20%
CN1CCN(C(=S)NCCc2ccccc2)CC1,,,cytopathic effect / XTT,,10 µg/mL,0%
Cc1cn([C@H]2C[C@H](N=[N+]=[N-])C([C@H](O)CO)O2)c(=O)[nH]c1=O,IIIB,,cytopathic effect / trypan blue,,200 µg/mL,0%
N#Cc1cc(Cl)cc(Oc2cc(OCc3[nH]nc4ncccc34)ccc2Cl)c1,,K103N,,,0.015 µM,>95%
CCCCCCCCCCCCCCCC(=O)OC[C@H]1O[C@@H](n2cnc3c(N)ncnc32)[C@@H]1CO,,,antigen,,3 µg/mL,93%
COc1cc(CN2CCN(C[C@@H](O)[C@H](Cc3ccccc3)NC(=O)O[C@@H]3CCS(=O)(=O)[C@@H]3C(C)C)[C@H](C(=O)NC(C)(C)C)C2)cc2c1OCO2,IIIB,,p24,,0.025 µM,95%
Cc1cn([C@H]2C[C@H](N=[N+]=[N-])[C@@H]([C@H](C)O)O2)c(=O)[nH]c1=O,IIIB,,cytopathic effect / trypan blue,,200 µg/mL,0%
CCc1c(Sc2ccccc2)n(COCc2ccccc2)c(=O)[nH]c1=O,A012B,,p24,,0.0058 µM,90%
[N-]=[N+]=NC[C@H]1[C@H](n2cnc3c(N)ncnc32)O[C@@H]1CO,,,antigen,,100 µg/mL,>99.9%
O=c1oc2cc(O)c(O)cc2c(O)c1-c1coc2c1c(=O)oc1cc(O)c(O)cc12,IIIB,,MTT,,0.0001 µM,0%
CCc1nnc(NC(=O)NCCc2ccccc2)s1,,,cytopathic effect / XTT,,1 µg/mL,0%
CCNC(=O)c1cn2c(c1O)C(=O)N(Cc1ccc(F)cc1)CC2,,,p24,,95 µM,≤20%
CC(=O)N(C)c1nc(C(=O)NCc2ccc(F)cc2)c(O)c2ncccc12,,,p24,50% human serum,0.612 µM,>95%
CC(=O)c1ccc(-c2cc3oc(=O)cc(C(C)C)c3c3c2C=CC(C)(C)O3)s1,899A,,RT activity / visual reading,,50 µM,13%
Fc1cccc(Cl)c1CCNC(=S)Nc1nccs1,,,cytopathic effect / XTT,,10 µg/mL,52–100%
Nc1ccn([C@H]2C=C[C@@H](CO)O2)c(=O)n1,IIIB,,antigen,,2 µM,98%
Nc1ncnc2c1ncn2[C@@H]1O[C@H](CO)[C@H]1N,,,antigen,,3 µg/mL,83%
N#Cc1cc(Cl)cc(Oc2c(Cl)ccc3c2nnn3Cc2[nH]nc3ncccc23)c1,,,,50% human serum,0.023 µM,>95%
Nc1ncnc2c1ncn2[C@@H]1O[C@H](CO)[C@@H]1O,,,antigen,,3 µg/mL,99%
CNC(=O)c1cn2c(c1O)C(=O)N(Cc1ccc(F)cc1)CC2,,,p24,,95 µM,≤20%
C=C1[C@H](n2cnc3c(N)ncnc32)O[C@@H]1CO,,,antigen,,3 µg/mL,90%
CC1(C)[C@@H](O[C@H]2O[C@H](C(=O)O)[C@@H](O)[C@H](O)[C@H]2O[C@@H]2O[C@H](C(=O)O)[C@@H](O)[C@H](O)[C@H]2O)CC[C@]2(C)[C@H]3C(=O)C=C4[C@@H]5C[C@@](C)(C(=O)O)CC[C@]5(C)CC[C@@]4(C)[C@]3(C)CC[C@@H]12,IIIB,,plaque count,,600 µM,100%

Percent inhibition refers to the dose given; in toxicity tests it is the harm to the cells. a–b is a range or a potency band. Conditions beyond the fields shown may differ between rows.